Measurements from patent publication EP2177496A1, “New analogs of polysphorin and uses thereof for treating or preventing malaria” (Assistance Publique - Hôpitaux de Paris, priority 2008, dated 2010).

Legend:
Settings in all cases: selectivity index = ratio of TC50 to IC50
P. yoelii = assay: In vitro activity against hepatic stage of P. yoelii (sporozoite-infected HepG2/CD81 cells or rodent hepatocytes, liver-schizont count); assay type: cell-based, P. yoelii (265 BY strain)
Procedure: (§1) Activity against pre-erythrocytic stages was tested by in vitro assays with the human parasite P. falciparum (NF54 strain) and the rodent parasite P. yoelii (265 BY strain). The rodent parasite P. yoelii is produced in the insectarium of the INSERM Unit U511 and human parasite P. falciparum was obtained from collaboration with R. Sauerwein.
(§2) Sporozoites were obtained from infected salivary glands of Anopheles stephensi mosquitoes fed on continuous culture of P. falciparum (coll R. Sauerwein, Netherlands), or on P. yoelii parasitized mice (insectarium of the INSERM Unit U511). After aseptic dissection, salivary glands were homogenized in a glass grinder and diluted in culture medium or sterile phosphate-buffered saline (PBS).
(§3) Primary cultures of rodent or human hepatocytes were prepared from liver segments taken from mouse or from adult patients undergoing partial hepatectomy. Hepatocytes were isolated using the two-step enzymatic perfusion technique (Guguen-Guillouzo et al., 1982) and were further purified on a discontinuous Percoll gradient. Then, hepatocytes were seeded in eight-chamber Lab-Tek permanox slides at a density of 1,4x10^5 cells per cm^2, and maintained under culture conditions as described in Mahmoudi et al., 2003. After complete adherence to culture plates, rodent and human hepatocytes were infected with P. yoelii or P. falciparum sporozoites, respectively, aseptically dissected from mosquitoes' salivary glands, as described above. Hepatocytes were inoculated with 6x10^4 sporozoites per Lab-Tek well. Compounds to be tested were added at the time of infection and/or after penetration of the sporozoites and at different concentrations (three wells per dilution). Every day, medium was replaced by fresh medium containing or not different concentrations of the molecules to be tested. Cultures were arrested at 48 hours (P. yoelii) or 6 days (P. falciparum) and cells were fixed with methanol. Liver-schizonts were quantified by microscopic examination after fluorescent labeling using a primary mouse antibody directed against Plasmodium heat shock protein-70 (Renia et al., 1990) produced in INSERM unit 511 and a secondary goat anti-mouse antibody conjugated with fluorescein isothiocyanate (Sigma Aldrich).

P. falciparum [1] = assay: In vitro activity against hepatic stage of P. falciparum in primary human hepatocytes (liver-schizont count); assay type: cell-based, P. falciparum (NF54 strain)
Procedure: as §1, §2
as §3, with “Every day, medium was replaced by fresh medium containing or not different concentrations of the molecules to be tested. Cultures were arrested at 48 hours (P. yoelii) or 6 days (P. falciparum) and cells were fixed with methanol.” left out

P. falciparum [2] = assay: In vitro activity against erythrocytic stage of P. falciparum ([3H]-hypoxanthine incorporation); assay type: cell-based, chloroquine-sensitive (3D7w) clone of P. falciparum
Procedure: After 48 hours, [^3H]-hypoxanthine (Amersham) was added to each well and then plates were incubated for 24 hours. Parasites were harvested, and incorporation of radioactivity was determined by liquid scintillation counting (Beckman LS1701, les Ulis, France). The counts-per-minute (cpm) was adjusted relative to controls to obtain percentages of inhibition. […] This estimation was obtained with IC50 estimator software. For the assay, the parasites were synchronized by D-sorbitol treatment.

Row | Structure (SMILES) | SI Hepatic stage (rodent) P. yoelii (P. yoelii) | SI Hepatic stage (human) P. Falciparum (P. falciparum [1]) | SI Erythrocytic stage P. falciparum (P. falciparum [2])
1 | COc1cc(C(O)C(C)Oc2c(OC)cccc2OC)cc(OC)c1OC (stereo not shown) [drawing 75] | 0.05 | – | –
2 | COc1cc(C(O)C(C)Oc2c(OC)cc(-c3ccccc3)cc2OC)cc(OC)c1OC (stereo not shown) [drawing 79] | >13.85 | 7142 | 2.5
3 | COc1cc(C(O)C(C)Oc2c(OC)cc(C)cc2OC)cc(OC)c1OC (stereo not shown) [drawing 76] | 0.94 | – | –
4 | COc1cccc(OC)c1OC(C)C(O)c1ccc2c(c1)OC(F)(F)O2 (stereo not shown) [drawing 71] | 2.62 | – | –
5 | COc1cc(C(O)C(C)Oc2c(OC)cc(C)cc2OC)cc(OC)c1OC (stereo not shown) [drawing 77] | 11008 | 328 | –
6 | COc1cc(C(O)C(C)Oc2c(OC)cc(-c3ccccc3)cc2OC)cc(OC)c1OC (stereo not shown) [drawing 78] | >14 | 2500 | 4.34
7 | COc1cccc(OC)c1OC(C)C(O)c1ccc2c(c1)OC(F)(F)O2 (stereo not shown) [drawing 70] | 2.73 | – | –
8 | COc1cc(C(O)C(C)Oc2c(OC)cccc2OC)cc(OC)c1OC (stereo not shown) [drawing 74] | 2.02 | – | –
